Results of unrelated studies side by side (data: NIAID ChemDB).

Common to all: growth or infection tests; organism: Herpes simplex virus 2; cells: E6SM; read by: cytopathic effect; measure: EC50

Conditions beyond the fields shown may differ between rows. ECn is the concentration giving n% inhibition of infection, replication or growth.

CCc1cn([C@H]2C[C@H](O)[C@@H](CO)S2)c(=O)[nH]c1=O ; strain: G 196 LYONS ; value: 0.23 µM
C[C@H]1C[C@@H](n2cnc3c(N)ncnc32)[C@H](O)[C@@H]1O ; strain: G ; value: 300 µg/mL
Cc1cc(O)ccc1O ; strain: G ; value: 120 µg/mL
O=c1[nH]c(=O)n([C@H]2C[C@H](O)[C@@H](CO)O2)cc1/C=C/Br ; strain: G 196 LYONS ; value: 1040 µM
Cc1cccc2c1OP(=O)(OCCOCn1cnc3c(=O)[nH]c(N)nc31)OC2 ; strain: G ; value: 0.26 µg/mL
Nc1nc2c(nnn2C[C@H]2CC[C@@H](CO)C2)c(=O)[nH]1 ; strain: G ; value: >200 µg/mL
O=c1[nH]c(=O)n([C@H]2C[C@H](O)[C@@H](CO)O2)cc1C1CCC1 ; strain: G 196 LYONS ; value: 850 µM
O=C(O)c1cc(O)c(O)c(O)c1 ; strain: G ; value: 20 µg/mL
Nc1nc(N)c2ncn(C[C@H]3CC[C@@H](CO)C3)c2n1 ; strain: G ; value: 300 µg/mL
CC(C)[Si]1(C(C)C)OC[C@H]2O[C@@H](n3cnc4cc(Cl)c(Cl)cc43)[C@@H](O)[C@H]2O[Si](C(C)C)(C(C)C)O1 ; strain: G ; value: >100 µg/mL
O=c1[nH]c(=O)n([C@H]2C[C@H](O)[C@@H](CO)O2)cc1/C=C/Br ; strain: LYONS ; value: 240 µg/mL
Nc1nc2c(ncn2C[C@H]2CC[C@@H](CO)C2)c(=O)[nH]1 ; strain: G ; value: >400 µg/mL
O=C(O)Cc1cc(O)ccc1O ; strain: G ; value: 4 µg/mL
OC[C@H]1O[C@@H](n2cnc3cc(Cl)c(Cl)cc32)[C@H](O)[C@H]1O ; strain: G ; value: >4 µg/mL
Cc1cn([C@H]2C[C@H](O)[C@@H](CO)O2)c(=O)[nH]c1=O ; strain: G 196 LYONS ; value: >2000 µM
OC[C@H]1O[C@@H](n2cnc3cc(Cl)c(Cl)cc32)[C@H](O)[C@@H]1O ; strain: G ; value: 10 µg/mL
O=c1[nH]c(=O)n([C@H]2C[C@H](O)[C@@H](CO)O2)cc1C1CCCC1 ; strain: G 196 LYONS ; value: >1200 µM
Nc1nc(Cl)c2ncn(C[C@H]3CC[C@@H](CO)C3)c2n1 ; strain: G ; value: >1 µg/mL
COc1ccc2c(c1)COP(=O)(OC[C@@H]1C=C[C@H](n3cnc4c(NC5CC5)nc(N)nc43)C1)O2 ; strain: G ; value: 7.2 µg/mL
O=c1[nH]c(=O)n([C@H]2C[C@H](O)[C@@H](CO)S2)cc1C1CCC1 ; strain: G 196 LYONS ; value: 53 µM
Cc1cc(O)cc(O)c1CC(=O)O ; strain: G ; value: 40 µg/mL
Nc1nc(NC2CC2)c2ncn([C@H]3C=C[C@@H](COP4(=O)OCc5cc(Cl)ccc5O4)C3)c2n1 ; strain: G ; value: 24 µg/mL
OC[C@H]1O[C@@H](n2cnc3cc(Cl)c(Cl)cc32)[C@@H](O)[C@@H]1O ; strain: G ; value: >10 µg/mL
Nc1nc(NC2CC2)c2ncn([C@H]3C=C[C@@H](CO)C3)c2n1 ; strain: G ; value: ≥40 µg/mL
O=[N+]([O-])c1cc(Cl)c(Cl)cc1[N+](=O)[O-] ; strain: G ; value: >1 µg/mL
CCc1cn([C@H]2C[C@H](O)[C@@H](CO)O2)c(=O)[nH]c1=O ; strain: G 196 LYONS ; value: 8.3 µM
Nc1nc2c(ncn2COCCO)c(=O)[nH]1 ; strain: G ; value: 0.09 µg/mL

2 of the rows above, restated:

structure | strain | value
OC[C@H]1O[C@@H](n2cnc3cc(Cl)c(Cl)cc32)[C@H](O)[C@H]1O | G | >4 µg/mL
Nc1nc2c(ncn2COCCO)c(=O)[nH]1 | G | 0.09 µg/mL